Results deposited as PubChem BioAssay AID1259414 (Drosophila RNAi Screening Center, 2018).
The screen tested about 24,000 reagents; this is a random part of those that have a named target and a result. In the full data, about 1,210 (5%) were called active. 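Inactive calls also include excluded dsRNAs with several or no targets, genes unexpressed in JW18, and well A1, regardless of score.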 Reagents against one gene are numbered here.

Screen: 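Genome-wide screen for host control of endosymbiont load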 (primary screen)
Cells: Drosophila JW18 cells infected with Wolbachia
Knock-down reagent: long dsRNA against Drosophila genes, 0.25 µg dsRNA per well of a 384-well plate
Time to read-out: 5 days
Challenge: cells persistently infected with Wolbachia before knock-down; no added drug
Measurement: 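Imaged fluorescence in situ signal for Wolbachia 23S rRNA per DAPI-counted host cell, given as a robust z-score within each plate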
Reading the numbers: Wolbachia per cell robust z: higher = more Wolbachia per host cell than the plate typical
Rule for the call: 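Active if absolute robust z reaches 1.5 in two or more of three replicates, leaving out multi- or no-target dsRNAs, genes unexpressed in JW18 and A1 wells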

Pos (Poseidon) → Wolbachia per cell robust z, rep 1: -1.28; Wolbachia per cell robust z, rep 2: -1.74; Wolbachia per cell robust z, rep 3: -0.219; call: inactive
CG30412 #1 → Wolbachia per cell robust z, rep 1: 0.391; Wolbachia per cell robust z, rep 2: -0.361; Wolbachia per cell robust z, rep 3: -0.164; call: inactive
CG30412 #2 → Wolbachia per cell robust z, rep 1: 0.203; Wolbachia per cell robust z, rep 2: 0.53; Wolbachia per cell robust z, rep 3: -0.258; call: inactive
AANATL4 (Arylalkylamine N-acetyltransferase-like 4) → Wolbachia per cell robust z, rep 1: 0.385; Wolbachia per cell robust z, rep 2: -1.68; Wolbachia per cell robust z, rep 3: 0.93; call: inactive
CycY (Cyclin Y) #1 → Wolbachia per cell robust z, rep 1: -0.207; Wolbachia per cell robust z, rep 2: -1.96; Wolbachia per cell robust z, rep 3: 0.307; call: inactive
CycY (Cyclin Y) #2 → Wolbachia per cell robust z, rep 1: 0.881; Wolbachia per cell robust z, rep 2: -0.932; Wolbachia per cell robust z, rep 3: 2.02; call: inactive
CycY (Cyclin Y) #3 → Wolbachia per cell robust z, rep 1: -0.158; Wolbachia per cell robust z, rep 2: -2.1; Wolbachia per cell robust z, rep 3: -0.863; call: inactive
BuGZ (Bub3 interacting GLEBS and Zinc finger domain protein) #1 → Wolbachia per cell robust z, rep 1: -1.82; Wolbachia per cell robust z, rep 2: -2.21; Wolbachia per cell robust z, rep 3: -1.15; call: active
BuGZ (Bub3 interacting GLEBS and Zinc finger domain protein) #2 → Wolbachia per cell robust z, rep 1: -1.1; Wolbachia per cell robust z, rep 2: -0.217; Wolbachia per cell robust z, rep 3: -0.353; call: inactive
BuGZ (Bub3 interacting GLEBS and Zinc finger domain protein) #3 → Wolbachia per cell robust z, rep 1: -2.91; Wolbachia per cell robust z, rep 2: 0.424; Wolbachia per cell robust z, rep 3: -0.052; call: inactive
BuGZ (Bub3 interacting GLEBS and Zinc finger domain protein) #4 → Wolbachia per cell robust z, rep 1: 1.44; Wolbachia per cell robust z, rep 2: 1.01; Wolbachia per cell robust z, rep 3: 2.6; call: inactive
BuGZ (Bub3 interacting GLEBS and Zinc finger domain protein) #5 → Wolbachia per cell robust z, rep 1: -1.84; Wolbachia per cell robust z, rep 2: -0.571; Wolbachia per cell robust z, rep 3: 0.0885; call: inactive

Reformatted: entries from further up.
BuGZ (Bub3 interacting GLEBS and Zinc finger domain protein) #1
- Wolbachia per cell robust z, rep 1: -1.82
- Wolbachia per cell robust z, rep 2: -2.21
- Wolbachia per cell robust z, rep 3: -1.15
- call: active

BuGZ (Bub3 interacting GLEBS and Zinc finger domain protein) #2
- Wolbachia per cell robust z, rep 1: -1.1
- Wolbachia per cell robust z, rep 2: -0.217
- Wolbachia per cell robust z, rep 3: -0.353
- call: inactive

Additional reagents follow:
ERp60 (Endoplasmic reticulum p60) #1 → Wolbachia per cell robust z, rep 1: 1.03; Wolbachia per cell robust z, rep 2: 0.286; Wolbachia per cell robust z, rep 3: 0.555; call: inactive
ERp60 (Endoplasmic reticulum p60) #2 → Wolbachia per cell robust z, rep 1: 0.778; Wolbachia per cell robust z, rep 2: 1.22; Wolbachia per cell robust z, rep 3: -0.92; call: inactive
Pfk (Phosphofructokinase) #1 → Wolbachia per cell robust z, rep 1: 0.439; Wolbachia per cell robust z, rep 2: -7.65; Wolbachia per cell robust z, rep 3: -6.65; call: active
Pfk (Phosphofructokinase) #2 → Wolbachia per cell robust z, rep 1: -4.97; Wolbachia per cell robust z, rep 2: -0.204; Wolbachia per cell robust z, rep 3: -0.251; call: inactive
CG3515 → Wolbachia per cell robust z, rep 1: -0.171; Wolbachia per cell robust z, rep 2: 0.0948; Wolbachia per cell robust z, rep 3: -6.66; call: inactive
Arl8 (ADP ribosylation factor-like 8) → Wolbachia per cell robust z, rep 1: 0.953; Wolbachia per cell robust z, rep 2: 0.0272; Wolbachia per cell robust z, rep 3: -0.348; call: inactive
Src42A (Src oncogene at 42A) #1 → Wolbachia per cell robust z, rep 1: 0.152; Wolbachia per cell robust z, rep 2: -1.35; Wolbachia per cell robust z, rep 3: 0.786; call: inactive
Src42A (Src oncogene at 42A) #2 → Wolbachia per cell robust z, rep 1: 1.53; Wolbachia per cell robust z, rep 2: 1.62; Wolbachia per cell robust z, rep 3: 2.43; call: inactive
Src42A (Src oncogene at 42A) #3 → Wolbachia per cell robust z, rep 1: 0.00427; Wolbachia per cell robust z, rep 2: -0.863; Wolbachia per cell robust z, rep 3: 0.445; call: inactive
Src42A (Src oncogene at 42A) #4 → Wolbachia per cell robust z, rep 1: 0.374; Wolbachia per cell robust z, rep 2: -1.59; Wolbachia per cell robust z, rep 3: -4.14; call: inactive
how (held out wings) #1 → Wolbachia per cell robust z, rep 1: 0.468; Wolbachia per cell robust z, rep 2: -1.77; Wolbachia per cell robust z, rep 3: -0.681; call: inactive
how (held out wings) #2 → Wolbachia per cell robust z, rep 1: 1.2; Wolbachia per cell robust z, rep 2: -1.25; Wolbachia per cell robust z, rep 3: -1.95; call: inactive
